We go through five molecules from the supplement of paper PMC9931576.

Human monoclonal antibodies against the spike receptor-binding domain (heavy:light variable regions). IC50 against pseudoviruses bearing the spike of naturally observed variants; lower = stronger; >10 µg/ml means not reached at the top dose. No active / inactive call. The stated detection limit is 0.0005 µg/ml; values near or below 0.001 µg/ml lie at the floor of the assay. A value given as a limit tells only on which side of the number the result lay.

First the molecules themselves.
B1: BD56-1367 (protein)
chain 1: QITLKESGPTLVKPTQTLTLTCTFSGFSLSTSGVGVGWIRQPPGKALEWLALIYWDDNKLYSPSLMSRLTLTKDTSKNQVVLSMTNMDAADTATYYCAHKYQLAAFDYWGQGTLVTVSS
chain 2: DIHMTQSPSSLSASVGDRVTITCQASQDITNYLNWYQQKPGKAPKLLIYDASNLQTGVPSRFSGSGSGTHFTFTISSLQPEDIATYYCQQYDNLWTFGQGTKVEIK
B2: BD56-1209 (protein)
chain 1: QVQLVQSGAEVKKPGSSVKVSCKASGGTFSNYASSWVRQAPGQGLEWMGGIIPMFGTANYAQKFQGRVTITADESTNTAYMELSSLRSEDTAVYYCARAGLGSWYGGSDGENYFDYWGQGTLVTVSS
chain 2: DIQMTQSPSSLSASVGDRVTITCRASQNISNYLNWYQQKPGKAPKLLIYAASSLHSGVPSRFSGSGSGTDFTLTISSLQPEDFATYYCQQSYNTLYTFGQGTKLEIK
B3: BD56-1238 (protein)
chain 1: QVQLVESGGGVVQPGRSLRLSCAASGFTFSGFAMHWVRQAPGKGLDWVAVISYDGSNKYYADSVKGRFTVSRDSSKSTLYLQMNSLKTEDTALYYCARDSLLGNWNDPWDAFDIWGRGTMVTVSS
chain 2: QSVLTQPPSVSGAPGQRVTISCTGSSSNIGAGYAVHWYQQLPGTAPRLLISDNNNRPSGVPDRFSGSTSGTSASLAITGLQAEDEADYYCQSYDTSLSHSVVFGGGTKLTVL
B4: BD56-1360 (protein)
chain 1: QVQLQESGPGLVKPSGTLSLTCAVSGGSISSSHWWSWVRQPPGKGLEWIGQIYHSGSTNYNPSLKSRVTISVDKSRNQFSLKVSSVTAADTAVYYCARLDGSSWSYFDYWGQGTLVTVSS
chain 2: DIVMTQTPLSLSVTPGQPASISCKSSQSLLHSDGKAYLYWYLQKPGQSPQLLIYEVSSRFSGVPDRFSGSGSGTDFTLKISRVEAEDVGVYYCMQGLYLPHTFGQGTKLEIK
B5: BD56-286 (protein)
chain 1: EVQLVQSGAEVKKPGESLKISCKGSGYSFTNYWIGWVRQMPGIGLEWMGIIYPGDSDTRYSPSFQGQVTISADKSISTAYLQWSSLKASDTAMYYCAIPNGYSSGCYFYWGQGTLVTVSS
chain 2: EIVMTQSPATLSVSPGERATLSCRASQSVSSNLAWYQQKPGQAPRLLIYDASTRATGIPARFSGSGSGTEFTLTISSLQSEDFAVYYCQQYNNWASTFGQGTKVEIK

The target of the first assay is SARS-CoV-2 Omicron BA.1 spike pseudovirus. The assay can be described thus: pseudovirus neutralization IC50; higher = weaker neutralization. How it is done:
(§1)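 Single-round VSV luciferase pseudovirus mixed with antibody dilutions for 1 h and put on Huh-7 cells for about a day; IC50 from the dose curve.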
In the case of B1, the “pseudovirus neutralization IC50” value was determined as 0.00384 µg/mL.
The same measure, in the same setting: then B2, with 0.733 µg/mL; and B3, with 0.00048 µg/mL; and B4, with over 10 µg/mL.
Same read-out and setting: for B5 the value was 0.00657 µg/mL.

The target of another assay is SARS-CoV-2 Omicron BA.2 spike pseudovirus. The assay is described as above. How it is done:
as §1
As to B1, the “pseudovirus neutralization IC50” value came to 0.000632 µg/mL.
Same read-out and setting: then B2, with 0.196 µg/mL; and B3, with 0.000828 µg/mL.
With B4, the “pseudovirus neutralization IC50” value stood at 0.00378 µg/mL.
The same measure, in the same setting: then B5, with 0.0293 µg/mL.

Another assay addresses SARS-CoV-2 Omicron BA.2.75 spike pseudovirus. Described as above. How it is done: as §1
Turning to B1, the “pseudovirus neutralization IC50” value worked out at 0.000284 µg/mL.
For the molecule B2, the “pseudovirus neutralization IC50” value was over 10 µg/mL.
For B3, the “pseudovirus neutralization IC50” value worked out at 0.00134 µg/mL.
Take B4: the “pseudovirus neutralization IC50” value is 0.00997 µg/mL.
Regarding B5, the “pseudovirus neutralization IC50” value turned out to be 0.115 µg/mL.

A further assay addresses SARS-CoV-2 Omicron BA.2.75.2 spike pseudovirus. Described as above. The protocol:
as §1
Consider B1, for which the “pseudovirus neutralization IC50” value was found to be 0.0142 µg/mL.
The same measure, in the same setting: then B2, with over 10 µg/mL.
On the same count and under the same terms, for B3 the value was 0.0111 µg/mL; for B4, 0.0841 µg/mL; for B5, 0.178 µg/mL.

The target of a further assay is SARS-CoV-2 Omicron BA.5 spike pseudovirus. Described as above. The protocol: as §1
Take B1: the “pseudovirus neutralization IC50” value turned out to be 0.000272 µg/mL.
On the same count and under the same terms, for B2 the value was over 10 µg/mL; for B3, 0.00202 µg/mL; for B4, 0.00888 µg/mL.
B5: the “pseudovirus neutralization IC50” value came to 0.0376 µg/mL.

The next assay has as its target SARS-CoV-2 Omicron BM.1.1.1 spike pseudovirus. The description is as above. The protocol: as §1
Regarding B1, the “pseudovirus neutralization IC50” value was 0.00429 µg/mL.
Same read-out and setting: for B2 the value was over 10 µg/mL; for B3, 0.00227 µg/mL.
On the same count and under the same terms, then B4, with 0.0309 µg/mL; and B5, with 0.16 µg/mL.

The next assay concerns the target SARS-CoV-2 Omicron BQ.1.1 spike pseudovirus. The assay is described as above. The protocol: as §1
Take B1: the “pseudovirus neutralization IC50” value stood at 0.00257 µg/mL.
Same read-out and setting: then B2, with over 10 µg/mL.
The same measure, in the same setting: for B3 the value was 0.00355 µg/mL; for B4, 0.0638 µg/mL.
On to B5, for which the “pseudovirus neutralization IC50” value was found to be 4.19 µg/mL.

The target of another assay is SARS-CoV-2 Omicron BR.2 spike pseudovirus. Described as above. The protocol:
as §1
Take B1: the “pseudovirus neutralization IC50” value came out at 0.00716 µg/mL.
Turning to B2, the “pseudovirus neutralization IC50” value is over 10 µg/mL.
Same read-out and setting: for B3 the value was 0.0013 µg/mL.
Consider B4, for which the “pseudovirus neutralization IC50” value worked out at 0.0287 µg/mL.
On the same count and under the same terms, then B5, with 0.173 µg/mL.

Another assay concerns the target SARS-CoV-2 Omicron CA.1 spike pseudovirus. The description is as above. The protocol:
as §1
As for B1, the “pseudovirus neutralization IC50” value is 0.00588 µg/mL.
Turning to B2, the “pseudovirus neutralization IC50” value was over 10 µg/mL.
For B3, the “pseudovirus neutralization IC50” value was found to be 0.00131 µg/mL.
The same measure, in the same setting: then B4, with 0.0303 µg/mL; and B5, with 0.149 µg/mL.

A further assay has as its target SARS-CoV-2 Omicron XBB spike pseudovirus. The description is as above. The protocol:
as §1
B1: the “pseudovirus neutralization IC50” value was 0.00453 µg/mL.
B2: the “pseudovirus neutralization IC50” value is over 10 µg/mL.
The same measure, in the same setting: for B3 the value was 0.00424 µg/mL.
On the same count and under the same terms, then B4, with 0.0358 µg/mL.
In the case of B5, the “pseudovirus neutralization IC50” value was over 10 µg/mL.

Another assay has as its target SARS-CoV-2 early D614G spike pseudovirus. The assay is described as above. How it is done: as §1
Take B1: the “pseudovirus neutralization IC50” value is over 10 µg/mL.
As for B2, the “pseudovirus neutralization IC50” value was over 10 µg/mL.
On the same count and under the same terms, then B3, with over 10 µg/mL; and B4, with over 10 µg/mL; and B5, with over 10 µg/mL.
